Measured values from several laboratories, pooled; numbers as filed in NIAID ChemDB.

Shared fields: host cell toxicity; cells: MRC-5; read-out: CC50

Blank or dashed fields: not listed here. CCn: concentration that lowers growth or viability of the cells by n%. Conditions beyond the fields shown may differ between rows.

compound	method	value
Clc1ccc2c(NCCNC(CCC3CCNCC3)c3ccccc3)ccnc2c1	fluorescence	0.008 µM
CCO/N=C/c1ccc(OCCN2CCN(c3ccc(Cl)nn3)CC2)cc1	visual reading	>1 µg/mL
O=S1(=O)N=C(OCc2ccc(C(F)(F)F)cc2)c2ccccc2N1Cc1ccc(C(F)(F)F)cc1		>48 µM
CO/N=C/c1cccc(OCCC2CCN(c3ccc(Cl)nn3)CC2)c1	visual reading	1 µg/mL
C[C@H]1[C@H](O)[C@@H](CO)O[C@H]1n1cc(Br)c(N)nc1=O		>100 µg/mL
CCO/N=C(\C)c1ccc(OCCC2CCN(c3ccc(Cl)nn3)CC2)cc1	visual reading	>1 µg/mL
O=C(CCCCCCCCCCC(=O)Nc1cc(S(=O)(=O)O)c2cccc(S(=O)(=O)O)c2c1)Nc1cc(S(=O)(=O)O)c2cccc(S(=O)(=O)O)c2c1		191 µM
CC1(C)CC[C@]2(C(=O)OC3O[C@H](CO)[C@@H](O)[C@H](O)[C@H]3O)CC[C@]3(C)C(=CCC4[C@@]5(C)CCC(O[C@@H]6O[C@H](C(=O)O)[C@@H](O)[C@H](O)[C@H]6O)C(C)(C)C5CC[C@]43C)[C@H]2C1		1100 µM
CCCCN1C(=O)c2ccccc2N(Cc2ccccc2)S1(=O)=O		63.7 µM
CCO/N=C/c1cccc(OCCC2CCN(c3ccc(Cl)nn3)CC2)c1	visual reading	>1 µg/mL
C=Cc1cn([C@@H]2O[C@H](CO)[C@@H](O)[C@@H]2O)c(=S)[nH]c1=O		>266.3 µM
CCOP(=O)(O)CCCCCCCOCn1cnc2c(=O)[nH]c(N)nc21	visual reading	>2580 µM
C[C@H]1[C@H](O)[C@@H](CO)O[C@H]1n1cc(I)c(N)nc1=O		>100 µg/mL
O=C(CCCCCCCCCCC(=O)Nc1cc(S(=O)(=O)O)cc2cc(S(=O)(=O)O)cc(O)c12)Nc1cc(S(=O)(=O)O)cc2cc(S(=O)(=O)O)cc(O)c12		>500 µM
O=C1c2ccccc2N(Cc2ccc(Cl)c(Cl)c2)S(=O)(=O)N1Cc1ccc(Cl)c(Cl)c1		>48 µM
O=S1(=O)N=C(OCC2CCCCC2)c2ccccc2N1Cc1ccc(Cl)c(Cl)c1		5.5 µM
CCc1cn([C@@H]2O[C@H](CO)[C@@H](O)[C@@H]2O)c(=S)[nH]c1=O		>264.9 µM
CC#Cc1cn([C@H]2C[C@H](O)[C@@H](CO)O2)c(=O)[nH]c1=O		>500 µM
O=S(=O)(O)c1cc(NS(=O)(=O)c2ccc(-c3ccc(S(=O)(=O)Nc4cc(S(=O)(=O)O)c5cccc(S(=O)(=O)O)c5c4)cc3)cc2)cc2c(S(=O)(=O)O)cccc12		>500 µM
O=C(O)/C=C/c1cn([C@@H]2O[C@H](CO)[C@@H](O)[C@@H]2O)c(=S)[nH]c1=O		>238.4 µM
Nc1nc2c(ncn2COCC(O)CCP(=O)(O)O)c(=O)[nH]1	visual reading	1686 µM
O=c1[nH]c(=S)n([C@@H]2O[C@H](CO)[C@@H](O)[C@@H]2O)cc1/C=C/c1ccccc1		>258.7 µM
CCCCN1C(=O)c2ccccc2N(CCc2ccccc2)S1(=O)=O		57.4 µM
CC(O)c1cn([C@@H]2O[C@H](CO)[C@@H](O)[C@@H]2O)c(=S)nc1N		>244.8 µM
CCO/N=C/c1ccc(OCCC2CCN(c3ccc(C)nn3)CC2)cc1C	neutral red	>0.1 µg/mL
CC(C)COC1=NS(=O)(=O)N(Cc2ccc(Cl)c(Cl)c2)c2ccccc21		60.4 µM
Cc1cn([C@H]2C[C@H](O)[C@@H](CO)O2)c(=S)[nH]c1=O		>302.6 µM
CC(C)OC1=NS(=O)(=O)N(Cc2ccc(Cl)cc2)c2ccccc21		2.7 µM
CO/N=C/c1ccc(OCCC2CCN(c3ccc(C)nn3)CC2)c(C)c1C	neutral red	>0.1 µg/mL
C[C@H]1[C@H](O)[C@@H](CO)O[C@H]1n1cc(Br)c(=O)[nH]c1=O		>100 µg/mL
CCN1C(=O)c2ccccc2N(Cc2ccc(Cl)cc2)S1(=O)=O		7.1 µM
CCOP(=O)(CCC(COC)OCn1cnc2c(Cl)nc(N)nc21)OCC	visual reading	187 µM
CCc1cn([C@H]2C[C@H](O)[C@@H](CO)O2)c(=S)[nH]c1=O		>288.6 µM
CCOP(=O)(O)CCC(CO)OCn1cnc2c(=O)[nH]c(N)nc21	visual reading	>2800 µM
Nc1ccn(C[C@@H](CO)OCP(=O)(O)O)c(=O)n1		1450 µM
CCO/N=C/c1ccc(OCCC2CCN(c3ccc(Cl)nn3)CC2)c(C)c1	neutral red	>0.1 µg/mL
Nc1nc(=S)n([C@@H]2O[C@H](CO)[C@@H](O)[C@@H]2O)cc1/C=C/c1ccccc1		>258.7 µM
CC(C)CN1C(=O)c2ccccc2N(Cc2ccc(Cl)c(Cl)c2)S1(=O)=O		60.4 µM
O=C1c2ccccc2N(Cc2ccc(C(F)(F)F)cc2)S(=O)(=O)N1Cc1ccc(C(F)(F)F)cc1		>48 µM